# From patent US20230256007A1 (priority 2022, published 2023)
# System: patient with sequelae of infection with the delta variant of coronavirus
# Settings: Case 1; after 4 weeks of inhalation, about 4% to 5% hydrogen, approximately 3 hours a day; before inhalation severity 3: severe
smiles,measurement,value
"[HH] [hydrogen gas, hydrogen]","Fatigue after exertion - loss of physical and mental endurance, fatigue aggravated by physical exertion: severity after inhalation (physician's diagnosis)",severity 2: moderate
